Pooled drug test results. Numbers come from NIAID ChemDB, via PubChem.

All rows: growth or infection tests; agent: Cryptosporidium parvum

Percent inhibition refers to the dose given; in toxicity tests it is the harm to the cells. Blank or dashed fields: not listed here. ECn is the concentration giving n% inhibition of infection, replication or growth. Neighbouring rows are from separate reports.

structure | strain | cell line | method | measure | dose | value
CCC(=O)CCCCC[C@@H]1NC(=O)[C@H]2CCCCN2C(=O)[C@H](C(C)CC)NC(=O)[C@H](Cc2cn(OC)c3ccccc23)NC1=O | - | - | - | MIC | - | 0.03 µg/mL
Cc1cn([C@H]2C[C@H](N=[N+]=[N-])[C@@H](CO)O2)c(=O)[nH]c1=O | - | - | - | inhibition | 10 µg/mL | 12%
O=S(=O)(F)Cc1ccccc1 | - | - | cell count / microscopy | inhibition | 3000 µM | 60%
COC(=O)c1cc([N+](=O)[O-])c(N2CCN(C)CC2)c([N+](=O)[O-])c1 | - | MDCK cells | ELISA / luminescence | EC50 | - | 7.2 µM
CCC(=O)CCCCC[C@@H]1NC(=O)[C@H]2CCCCN2C(=O)[C@H](C(C)CC)NC(=O)[C@H](Cc2c[nH]c3ccccc23)NC1=O | - | - | - | MIC | - | 0.07 µg/mL
COC(=O)c1cc([N+](=O)[O-])c(N2CCOCC2)c([N+](=O)[O-])c1 | - | MDCK cells | ELISA / luminescence | EC50 | - | 66.9 µM
CC[C@@]1([C@@H]2O[C@@H]([C@H]3O[C@@](O)(CO)[C@H](C)C[C@@H]3C)C[C@@H]2C)CC[C@H]([C@]2(C)CC[C@]3(C[C@H](O)[C@@H](C)[C@@H]([C@@H](C)[C@@H](OC)[C@H](C)C(=O)O)O3)O2)O1 | Calf isolate | L929 | - | EC50 | - | <0.8 µg/mL
CCCNc1c([N+](=O)[O-])cc(C(F)(F)F)cc1[N+](=O)[O-] | - | MDCK cells | ELISA / luminescence | EC50 | - | 1.39 µM
C[C@H]1[C@H](O)[C@@H](C)/C=C/C=C/C=C/C=C/C=C/C=C/C=C/[C@H](O[C@@H]2O[C@H](C)[C@@H](O)[C@H](N)[C@@H]2O)C[C@@H]2O[C@](O)(C[C@@H](O)C[C@@H](O)CC[C@H](O)[C@@H](O)C[C@@H](O)CC(=O)O[C@H]1C)C[C@H](O)[C@H]2C(=O)O | Calf isolate | L929 | - | inhibition | 20 µg/mL | -33.33%
CNC(=O)c1cc([N+](=O)[O-])c(N2CCOCC2)c([N+](=O)[O-])c1 | - | MDCK cells | ELISA / luminescence | EC50 | - | 49.5 µM
CC(C)N=C(N)/N=C(\N)Nc1ccc(Cl)cc1 | Calf isolate | L929 | - | inhibition | 4 µg/mL | 5%
CC(=O)N[C@@H](CC(C)C)C(=O)N[C@@H](CC(C)C)C(=O)N[C@H](C=O)CCCN=C(N)N | - | - | - | inhibition | 5 µg/mL | 10.9%
N/C(=N\N=C\c1ccc(Cl)cc1)N/N=C/c1ccc(Cl)cc1 | Human isolate | L929 | - | inhibition | 0.032 µg/mL | -1.26%
CC(C)(C)NC(=O)[C@@H]1CN(Cc2cccnc2)CCN1C[C@@H](O)C[C@@H](Cc1ccccc1)C(=O)N[C@H]1c2ccccc2C[C@H]1O | - | HCT-8 | - | inhibition | 20 µg/mL | 15%
Nc1ncnc2c1ncn2Cc1c(F)cccc1Cl | Calf isolate | L929 | - | EC50 | - | <0.8 µg/mL
CO[C@@H]1[C@@H](OC)[C@H](C)[C@@](O)(CC(=O)O)O[C@H]1[C@H](C)[C@H]1O[C@@]2(CC[C@@](C)([C@H]3CC[C@@](C)([C@@H]4O[C@@H]([C@H]5O[C@](C)(O)[C@H](C)C[C@@H]5C)C[C@@H]4O[C@@H]4C[C@H](OC)[C@@H](OC)[C@H](C)O4)O3)O2)C[C@H](O)[C@H]1C | - | - | - | MIC | - | 0.5 µg/mL
Nc1nc(N)c2c(n1)NC(c1sc(Cl)nc1Cl)CC(c1ccc(Cl)cc1)=N2 | IM 052470 | - | broth dilution | MFC | - | 62.5 µg/mL
Cc1cn([C@H]2C[C@H](N=[N+]=[N-])[C@@H](CO)O2)c(=O)[nH]c1=O | Calf isolate | L929 | - | inhibition | 4 µg/mL | -2.56%

2 of the rows above, restated:

structure	strain	cell line	method	measure	dose	value
Cc1cn([C@H]2C[C@H](N=[N+]=[N-])[C@@H](CO)O2)c(=O)[nH]c1=O	Calf isolate	L929	-	inhibition	4 µg/mL	-2.56%
CNC(=O)c1cc([N+](=O)[O-])c(N2CCOCC2)c([N+](=O)[O-])c1	-	MDCK cells	ELISA / luminescence	EC50	-	49.5 µM